# Reference: US20240124545A1, “COMPOSITIONS AND METHODS RELATING TO THE TREATMENT OF DISEASES” (ILC THERAPEUTICS LIMITED, priority 2021, published 2024)
# System: HeLa-CD4-βgal cells
# Assay: XTT viability (cytotoxicity) assay, uninfected HeLa-CD4-βgal cells (Experiment 4)
# Details: control antiviral 0.2 μM, raw absorbance 490 nm
structure (smiles),measurement,value
"CC(C)OC(=O)[C@H](C)N[P@](=O)(CO[C@H](C)Cn1cnc2c(N)ncnc21)Oc1ccccc1 [TAF, tenofovir alafenamide]",Viability of Uninfected HeLa-CD4-β gal Cells (A490),0.896
